Mtb glucose medium: 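Growth of Mycobacterium tuberculosis over 3 days (7H9 medium with glucose and tyloxapol); the read-out is not stated. Compounds at 500 µM. Direction is inferred from retests: higher values go with more growth inhibition. Of about 18,000 compounds tested this way, about 1,400 (7.9%) reached 50% or more in at least one test.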
Mtb cholesterol medium: 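Phenotypic screen: M. tuberculosis growth, cholesterol and DPPC medium, 4 days; the read-out is not stated. Concentration: 500 µM. Direction is inferred from retests: higher values go with more growth inhibition. Of about 18,000 compounds tested this way, about 900 (5%) reached 50% or more in at least one test.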

The filed quantity is “Percent Effect” (%).
How 0% and 100% were set is not recorded. Most values in the screen are low, and negative values occur.
The entries come from a sample that favours strong results.
A dash means the value is not listed here; it may have been measured.

| # | SMILES | Mtb glucose medium | Mtb cholesterol medium |
|---|---|---|---|
| 1 | `Cc1ccc(C)c(OCC(O)CN2CCOCC2)c1` (centres unmarked) | 27.95% | - |
| 2 | `CNC(=O)C1CN(C(=O)Cc2ccc(F)cc2)CCO1` (centres unmarked) | 4.469% | - |
| 3 | `NC(=O)NCC(=O)Nc1cccc(C2SCCS2)c1` | 7.311% | - |
| 4 | `CCCc1ccc(C(=O)N2CCCN(C)CC2)cc1` | 76.2% | 57.52% |
| 5 | `N#Cc1ccc(-c2nnc(CN3CCC(O)C3)o2)cc1` (centres unmarked) | - | 5.947% |
| 6 | `CNC(=O)CSc1nccn1Cc1ccco1` | 4.668% | -19.68% |
| 7 | `CCCN(Cc1cccc(C#N)c1)C1CCS(=O)(=O)C1` (centres unmarked) | - | 11.88% |
| 8 | `O=C(NCC1CC1)c1noc(-c2ccccc2F)n1` | 72.01% | 50.63% |
| 9 | `CC(=O)Nc1cccc(CN(C)CCC(C)O)c1` (centres unmarked) | 13.95% | - |
| 10 | `COCCC1(C(=O)NCc2cc(Cl)ccn2)CC1` | 19.54% | - |
| 11 | `COCCN(Cc1ccco1)C(=O)CCn1cccn1` | - | -8.39% |
| 12 | `COc1ccccc1OCC(C)N` (centres unmarked) | 6.391% | -9.596% |
| 13 | `CC(C)COc1ccc(C(=O)N(C)CC(N)=O)cn1` | 3.122% | - |
| 14 | `Cc1nn(C(C)C)c(C)c1NC(=O)N1CCC[C@H]1CO` | 25.49% | - |
| 15 | `Cc1cc(C(=O)NCCCN(C)C)c2ccccc2n1` | 9.008% | - |
| 16 | `Cc1cnc(C(=O)N(Cc2cnn(C)c2)C2CC2)cn1` | 2.139% | - |
| 17 | `Cc1nc[nH]c1CN1CCCOC(CN2CCCC2)C1` (centres unmarked) | -9.019% | - |
| 18 | `Cc1cccn(Cc2nc(-c3ccccn3)no2)c1=O` | 4.493% | - |
| 19 | `CCN(CC)CC(=O)Nc1sccc1C(N)=O` | -6.523% | -6.177% |
| 20 | `O=C1NCCCC1O` (centres unmarked) | -7.184% | - |
| 21 | `CNC(=O)CCNC(=O)NCCc1ccccc1` | 9.706% | - |
| 22 | `Cc1nccn1-c1ccc(C(C)N)cc1` (centres unmarked) | 8.207% | - |
| 23 | `c1cc2c(cc1CN1CCCCC1)CNCCO2` | -11.49% | - |
| 24 | `O=C(Cn1cc(Cl)cn1)N1CCC2(CCCNC2)C1` (centres unmarked) | 7.117% | - |
| 25 | `Cc1cc(C(=O)NCCCNCc2cccnc2)no1` | -4.333% | - |
| 26 | `CN(C)C(=O)CSc1ncccc1C#N` | -0.3094% | - |
| 27 | `c1cncc(-c2nc(SCC3CCCCO3)n[nH]2)c1` (centres unmarked) | 64.2% | 64.46% |
| 28 | `CCN(CCN1CCCC1)C1CCNCC1` | - | -1.071% |
| 29 | `CCCc1cc(CN(C)C(=O)c2nc(C)c[nH]2)n[nH]1` | 41.79% | 13.76% |
| 30 | `Cn1c(CNC(=O)Nc2nccs2)nnc1C1CC1` | -0.05156% | - |
| 31 | `CNC1(CO)Cc2ccccc2C1` | 18.07% | - |
| 32 | `Cn1nc2n(c1=O)CCN(Cc1ccc(Br)o1)CC2` | - | -16.73% |
| 33 | `CCN(CCS(=O)(=O)c1ccccc1)CC(=O)N(C)C` | 92.27% | 94.61% |
| 34 | `COC(=O)[C@H](C)NC(=O)C1(c2ccccc2F)CC1` | 74.18% | 61.14% |
| 35 | `CN1C(=O)Cc2cc(S(=O)(=O)N3CCCCC3)ccc21` | - | -4.779% |
| 36 | `CC(C)c1nccn1CC(=O)NC(=O)NC1CC1` | -0.8394% | - |
| 37 | `COC[C@@H]1CCCN1Cc1cc(OC)ccn1` | - | -6.421% |
| 38 | `NCc1cccc(-n2ccnn2)c1` | - | 5.698% |
| 39 | `CN(C)S(=O)(=O)N(CCO)Cc1ccc(Cl)c(Cl)c1` | 65.65% | 68.2% |
| 40 | `CCc1cc(C(=O)NC(CC)c2ncc[nH]2)[nH]n1` (centres unmarked) | 2.801% | - |
| 41 | `O=C1CCC2(CNC(=O)c3ccco3)CCCC=C2N1` (centres unmarked) | -10.24% | - |
| 42 | `O=C(CN(C1CCCC1)C1CC1)N1CCNC1=O` | - | 1.097% |
| 43 | `CCC(CC)C(=O)NC1CCN(CC)CC1` | -9.134% | - |
| 44 | `CC1(C)CNC(=O)CN1C(=O)CC(F)(F)F` | 15.65% | - |
| 45 | `O=C(NCCNC(=O)C1CCCC1)c1ccccc1O` | 55.44% | 46.77% |
| 46 | `CCn1ncnc1CN1C[C@H]2CC[C@@H](C1)[C@H]2N(C)C` | -0.3656% | - |
| 47 | `Cn1nc(CCN)c2ccccc21` | -8.416% | 70.99% |
| 48 | `O=C(CCN1CCC(O)CC1)N1CCc2ccccc21` | 6.824% | -7.046% |
| 49 | `O=C1CN(C(=O)c2ccc(Br)s2)c2ccccc2N1` | 15.85% | - |
| 50 | `CN(C)C(C)(C)CNC(=O)c1c(O)cccc1F` | -0.4109% | -5.453% |
| 51 | `CC(C)N(C)CC(=O)N1CCN(CC(C)(C)O)CC1` | 2.216% | - |
| 52 | `O=C1COc2c(Cl)cccc21` | -30.08% | - |
| 53 | `COc1ccc(C(=O)Nc2cnn(C)c2)cc1` | 21.23% | -0.3016% |
| 54 | `CCC(O)(CC)CNc1nnnn1-c1ccc(C)cc1` | 32.89% | 16.54% |
| 55 | `CN1CCOCC1C(=O)NCCCNc1ccccc1` (centres unmarked) | 23.35% | - |
| 56 | `COc1cc(NC(=O)c2cncc(Br)c2)ncn1` | -9.428% | - |
| 57 | `O=C(CC(F)(F)F)N1CCCC1c1ccncc1` (centres unmarked) | - | -1.912% |
| 58 | `CC1CN(C(=O)[C@@H](N)Cc2ccccc2)CC(C)(C)O1` (some centres unmarked) | 9.876% | - |
| 59 | `CN(C)[C@@H]1CN(C(=O)c2ccccc2Br)C[C@H]1CO` | -14.88% | - |
| 60 | `COC(=O)c1sccc1NC(=O)c1ccnn1C` | -5.245% | - |
| 61 | `O=C1CN(C(=O)CSc2ncccc2Cl)CCN1` | 2.889% | -0.5653% |
| 62 | `COC(=O)CNS(=O)(=O)c1ccc(C)cc1` | 27.17% | - |
| 63 | `Cc1noc([C@@H]2CN(C3CCCC3)C[C@H]2CO)n1` | -13.4% | - |
| 64 | `CC(C)c1ccc(CNCCNCCO)cc1` | 44.33% | 18.25% |
| 65 | `CNc1cc(C(=O)NCC(OC)c2cccs2)ccn1` (centres unmarked) | 50.74% | 14.59% |
| 66 | `NC(=O)C1CCN(C(=O)CN2CCOCC2)CC1` | - | -13.67% |
| 67 | `NCCCc1cccc(F)c1` | 92.41% | 102.9% |
| 68 | `CCNc1cccc(OC)c1` | 81.16% | 76.09% |
| 69 | `CC(C(=O)Nc1ccc(C(N)=O)cc1)n1cccn1` (centres unmarked) | 5.573% | - |
| 70 | `CC(C)[C@H](N)C(=O)N(C)c1ccccc1` | -1.017% | - |
| 71 | `CCOCCSc1nnnn1CC1CCCO1` (centres unmarked) | 37% | 42.79% |
| 72 | `NCc1nnc2ccc(Cl)nn12` | - | -8.317% |
| 73 | `CC(=O)Nc1ccc(C(=O)NCc2ccncc2)cc1` | 0.08326% | - |

Repeated from the top, 5 entries:

| SMILES | Mtb glucose medium | Mtb cholesterol medium |
|---|---|---|
| `Cc1ccc(C)c(OCC(O)CN2CCOCC2)c1` (centres unmarked) | 27.95% | - |
| `CNC(=O)C1CN(C(=O)Cc2ccc(F)cc2)CCO1` (centres unmarked) | 4.469% | - |
| `NC(=O)NCC(=O)Nc1cccc(C2SCCS2)c1` | 7.311% | - |
| `CCCc1ccc(C(=O)N2CCCN(C)CC2)cc1` | 76.2% | 57.52% |
| `N#Cc1ccc(-c2nnc(CN3CCC(O)C3)o2)cc1` (centres unmarked) | - | 5.947% |

Measurements from “University of Dundee, Small-Polar-MMV Screening Library” (2021), ChEMBL document CHEMBL3988442.